The results in this text go back to PubChem BioAssay AID485350 (ICCB-Longwood Screening Facility, Harvard Medical School, 2010).

The list shows a part of the results, in another mix than the full data. Calls of active or inactive are those of the source. Cut-off read from the data, not from the text of the source: active = inhibition above about 25% (passing the limit was not always enough); inactive = the rest.

This test relates to BasE (2,3-dihydroxybenzoate-AMP ligase), Acinetobacter baumannii ATCC 17978. Nature of the test: inhibitors of A. baumannii BasE – biochemical, Acinetobacter baumannii ATCC 17978, fluorescence polarization, primary screen (AID 485350).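 Note: 0% = negative plate control signal and 100% = positive plate control signal.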 The following applies: purified BasE, fluorescence polarization binding displacement; stronger effect = higher value; concentration not given here.
The term inhibition denotes the change of the read-out against control, counted positive when it falls. As to `CCN1CCC(Nc2ccc(F)cc2)CC1`, the inhibition was inactive: -3.38%.
Then `CN(C)c1ccc(C(=O)NCC2(N3CCCCC3)CCCCC2)cc1`, with inactive: -0.84%; and `CCOc1ncccc1C(=O)NCC1(N2CCCCC2)CCCCC1`, with inactive: 1.28%.
For the compound `O=C(NCC1(N2CCCCC2)CCCCC1)c1n[nH]c2ccccc12`, the inhibition was inactive: -3.94%.
The figure for `CCOc1ncccc1C(=O)NCC1(N(C)C)CCCCC1` is inactive: -1.98%.
The figure for `CN1CCC(Nc2ccc(F)cc2)CC1` is inactive: 0.76%; for `O=C1CCN(CCc2ccccc2)CC1` it is inactive: 0.81%; for `CCCN1CCC(Nc2cc(OC)cc(OC)c2)CC1` it is inactive: 0.2%.
Then `Cc1c(C(=O)NCC2(N3CCOCC3)CCCCC2)oc2c(Cl)cccc12`, with inactive: -1.32%; and `O=C(NCC1(N2CCOCC2)CCCCC1)c1cc2ccccc2cc1O`, with inactive: 1.57%; and `Cn1nc(C(=O)NCC2(N3CCCCC3)CCCCC2)c2ccccc2c1=O`, with inactive: -0.7%.
On to `NC(=O)C1(Nc2ccc(F)cc2)CCNCC1`, for which the inhibition was inactive: 2.85%.
Then `Cc1ccc(C(=O)NCC2(N(C)C)CCCCC2)o1`, with inactive: -0.08%; and `c1ccc(CN2CCC(Nc3ccc4c(c3)OCO4)CC2)cc1`, with inactive: 3.56%.
For `N#CC1(Nc2ccccc2)CCN(Cc2ccccc2)CC1`, the inhibition was inactive: -1.21%.
The figure for `Cc1cnc(C(=O)NCC2(N3CCCCC3)CCCCC2)cn1` is inactive: -1.29%.
Turning to `COc1ccc(C(=O)NCC2(N3CCCCC3)CCCCC2)cc1`, the inhibition is inactive: -2.46%.
The figure for `CCCN1CCC(Nc2ccc(OC)c(OC)c2)CC1` is inactive: 0.2%; for `CCOC(=O)N1CCC(Nc2cccc(C)c2)CC1` it is inactive: 0.24%.
Then `O=C1CCN(Cc2ccccc2)CC1`, with inactive: -1.66%.
On to `O=C(NCC1(N2CCOCC2)CCCCC1)c1ccc2nc[nH]c2c1`, for which the inhibition is inactive: -1.01%.
The figure for `CCOC(=O)N1CCC(Nc2ccc(F)cc2)CC1` is inactive: -0.25%.
